Screening data, single-dose tests

Measurements from “University of Dundee, Small-Polar-MMV Screening Library” (2021), ChEMBL document CHEMBL3988442.

Results are given as percent effect.
How 0% and 100% were set is not recorded. Most values in the screen are low, and negative values occur.
Many other results are left out here, so strong results are more common than in the screen.

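Growth of Mycobacterium tuberculosis over 3 days (7H9 medium with glucose and tyloxapol); the read-out is not stated. Tested at 500 µM. The record gives no direction; compounds that gave an IC50 in retests scored well above the rest, so higher reads as more growth inhibition. Of about 18,000 compounds tested this way, about 1,400 (7.9%) reached 50% or more in at least one test.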

| Compound | percent effect |
|---|---|
| `CCC(=O)N1CCC(CCCN2CCOCC2)CC1` | -0.7909% |
| `CCCc1noc(C(C)Nc2cccc(C(N)=O)c2)n1` (centres unmarked) | 67.71% |
| `CC1(C)NC(=O)CC1c1ccccc1` (centres unmarked) | 15.47% |
| `Brc1cncc(C2CCCN2)c1` (centres unmarked) | 17.43% |
| `O=C(NCc1cccnc1)C1COc2ccccc2O1` (centres unmarked) | 54.77% |
| `CCN(CC(N)=O)Cc1ccc(N2CCCC2)nc1` | 38.47% |
| `CCN(Cc1ccccc1)C(=O)C1CCNCC1` | 37.87% |
| `CSCc1noc(CN(C)CCc2ccccn2)n1` | 24.03% |
| `Cc1noc(C)c1NC(=O)NCCCc1csc(N)n1` | 7.326% |
| `O=C(NCCC(=O)N1CCCC1)Nc1nncs1` | 1.761% |
| `Cc1noc(C)c1CNC1=NS(=O)(=O)c2ccccc21` | -168% |
| `O=C(CC1CCS(=O)(=O)C1)NCCc1ccc(F)cc1` (centres unmarked) | 13.6% |
| `CCc1cc(C(=O)NCC(=O)N2CCCCC2)[nH]n1` | 21.12% |
| `CN(C)C(=O)CNC(=O)C(C)(C)Oc1ccc(Cl)cc1` | 17.98% |
| `CCN(CC)C(=O)CN1CCCC(C)C1` (centres unmarked) | 1.386% |
| `CCn1ccc(=O)[nH]c1=O` | 3.229% |
| `CC(=O)NCc1ccc(C(=O)CSc2nccn2C)s1` | -6.631% |
| `Cc1cc(C2CCC2)nc(N2CCNC(=O)C2)n1` | 64.52% |
| `Cc1nnc(CCNC(=O)CSc2nnc(N)s2)s1` | 10.07% |
| `Cc1cccc(CS(=O)(=O)c2nncn2C)c1` | -5.786% |
| `CCC(NC(=O)Cn1cc(Cl)c(C)n1)c1ccnn1C` (centres unmarked) | 11.81% |
| `COc1ccc(CN2CCCC3(CCOCC3)C2)cn1` | 18.68% |
| `OCCc1cnn(-c2ccccc2CO)c1` | 8.535% |
| `COc1ccc(S(=O)(=O)N2CC(N)C2)cc1` | 3.492% |
| `Cc1cc(=O)[nH]c(CCNC(=O)[C@H]2CCC[C@H](O)C2)n1` | -3.8% |
| `N#CCCCS(=O)(=O)c1ccc(Cl)cn1` | 18.88% |
| `Cc1ccc(CN)n1C` | 65.5% |
| `CSc1ccccc1C(=O)NCCN(C)C` | 3.954% |
| `CNc1cccnc1N(C)C` | 18.22% |
| `Cc1noc(COc2ccc(S(C)(=O)=O)cc2)n1` | -13.26% |
| `NS(=O)(=O)NCC1CCN(c2cccc(Br)c2)C1` (centres unmarked) | 75.79% |
| `O=S1(=O)CCNCC12CCCCC2` | -5.573% |
| `CCCC(=O)NC1CCN(CC)CC1` | 7.587% |
| `O=C(NC1CNC1)C1CCC1` | -2.356% |
| `Cc1cc(C(=O)N(C)C[C@H](O)CO)cc(Cl)c1Br` | 61.5% |
| `Cc1cccc(C(=O)NCC(C)N2CCOCC2)n1` (centres unmarked) | 10.69% |
| `Cc1ccc(S(=O)(=O)NCc2ncc[nH]2)cc1` | 23.58% |
| `COc1ccc(NC(C)CCn2cncn2)cn1` (centres unmarked) | -1077% |
| `CNCc1nc(C)cs1` | -1.791% |
| `CN(C)CCCNS(=O)(=O)Cc1ccccc1F` | -5.108% |
| `O=C(CNc1cccc(C(F)(F)F)c1)N1CCNC1=O` | 12.58% |
| `CC(=O)NC1(c2nc(C)cs2)CCNC1` (centres unmarked) | -5.06% |
| `OCCNCC(O)c1ccc(Br)cc1` (centres unmarked) | 17.79% |
| `CCNc1cccc(OC)c1` | 81.16% |
| `CCN(CC)S(=O)(=O)c1ccc(OC)c(NC(C)=O)c1` | 12.39% |
| `CCS(=O)(=O)N1CCC(C(=O)NC(C)COC)CC1` (centres unmarked) | 1.219% |
| `COc1ccc(CN)nc1` | 17.41% |
| `CNC(=O)CCNC(=O)NCCc1ccccc1` | 9.706% |
| `O=C(Cn1cc(C(F)(F)F)ccc1=O)N1CCCC1` | -3.914% |
| `CCc1cc(C(=O)NCC(=O)C(C)C)[nH]n1` | -2.047% |
| `CCOC(=O)CN(C)c1ccc2nnnn2n1` | -0.8419% |
| `COCCCNC(=O)c1coc(Br)c1` | 62.93% |
| `Cc1nnc(SCCCNC(=O)c2nn(C)cc2Cl)s1` | 41.83% |
| `COc1ccc(Cn2[nH]ccc2=N)cc1` | 20.1% |
| `CC(=O)Nc1cccc(CN(C)CCC(C)O)c1` (centres unmarked) | 13.95% |
| `CCCc1cc(CN(C)C(=O)c2ccnnc2)n[nH]1` | 13.18% |
| `CN(Cc1ccsc1)C(=O)c1nccnc1N` | 20.96% |
| `O=C(NCC1CCNCC1)Nc1nncs1` | -0.7878% |
| `CC(C)COc1cncc(NC(C)CO)n1` (centres unmarked) | 73.26% |
| `CCc1c[nH]ccc1=N` | -9.47% |

For reference, 6 entries once more:

| Compound | percent effect |
|---|---|
| `CCC(=O)N1CCC(CCCN2CCOCC2)CC1` | -0.7909% |
| `COCCCNC(=O)c1coc(Br)c1` | 62.93% |
| `OCCc1cnn(-c2ccccc2CO)c1` | 8.535% |
| `Cc1noc(C)c1NC(=O)NCCCc1csc(N)n1` | 7.326% |
| `Cc1nnc(SCCCNC(=O)c2nn(C)cc2Cl)s1` | 41.83% |
| `O=C(CNc1cccc(C(F)(F)F)c1)N1CCNC1=O` | 12.58% |